Data on 2 molecules can be found in paper PMC6817905, “Inhibition of translation termination by small molecules targeting ribosomal release factors” (Scientific Reports, 2019).

One test relates to wt S. aureus. Briefly: Time-kill assay, wt S. aureus. The following applies: 1x or 2x MIC, cell number decreased during first four hours, regrowth after about eight hours. Format: cell-based, Staphylococcus aureus. On the procedure: To determine if the compounds are bacteriostatic or bactericidal, time-kill assays were performed with wt S. aureus and a ΔtolC efflux-defective E. coli. The initial inoculums were diluted from triplicate biological replicates of overnight cell cultures inoculated with one colony in 1 ml MH II medium. The cell inoculum was diluted 1:1000 in 1 ml MH II medium and the cell culture was allowed to recover for 30 minutes before the compounds were added at a final concentration of 1x MIC (250 mg l^−1 for compound 115 and 125 mg l^−1 for compound 161 for both bacterial strains) or 2x MIC. As a control of the possible effect of DMSO on cell growth, the positive growth controls (three biological replicates) contained the same DMSO concentration as the cells with compound added (2x MIC). Samples (20 µl) were withdrawn before the compound was added and also after 1, 2, 4, 8 and 24 h after addition. The cells were diluted in 0.9% NaCl before they were plated on non-selective agar plates using glass beads. Colonies were counted after approximately 20 h.

Test [1] deals with Staphylococcus aureus strain ATCC29213. Kind of test: MIC on bacterial growth, wt S. aureus (broth micro-dilution). The following applies: for MIC S. aureus wt: broth micro-dilution; for MIC S. aureus: initial screen, wt S. aureus ATCC29213. Type of test: cell-based.

Values after ≈ are worked out from the molar mass of the structure shown.

For `CC1CCN(Cc2csc(NC(=O)CNC(=O)c3ccc(Cl)c(Cl)c3)n2)CC1`, the “Bacteriostatic or bactericidal, time-kill” value with wt S. aureus is listed as “bactericidal”. In test [1], the “MIC S. aureus wt” value was 250 µg/mL (≈ 566 µM) and the “MIC S. aureus” value is 250 µg/mL (≈ 566 µM).
In the case of `CC1CC(C)CN(Cc2csc(NC(=O)CNC(=O)c3ccc(C(C)(C)C)cc3)n2)C1` (stereo not drawn), the “Bacteriostatic or bactericidal, time-kill” value in the test with wt S. aureus is “bactericidal”. In test [1], the “MIC S. aureus wt” value amounted to 125 µg/mL (≈ 282 µM) and the “MIC S. aureus” value is 125 µg/mL (≈ 282 µM).
